# Reference: patent publication US20020182595, “Method of identifying cellular regulators of adeno-associated virus (AAV)” (published 2002)
# For at least one entry, the source does not settle the construct or the ends of the probe. At least one result comes from cells or an extract, where the contact may be indirect. Tags and fusion partners may be left off the protein sequences shown.
# Biological target: T1, RepTZAD (Rep 1-244 fusion) (UniProt Q89268)
# T1 sequence (looked up): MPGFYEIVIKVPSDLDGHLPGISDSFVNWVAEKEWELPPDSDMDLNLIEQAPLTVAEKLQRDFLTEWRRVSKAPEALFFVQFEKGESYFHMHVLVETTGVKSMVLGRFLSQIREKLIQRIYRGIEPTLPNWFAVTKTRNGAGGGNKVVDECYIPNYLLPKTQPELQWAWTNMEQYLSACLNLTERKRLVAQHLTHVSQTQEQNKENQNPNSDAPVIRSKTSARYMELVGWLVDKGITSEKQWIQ
# Test: one hybrid
# Settings: positive control in yeast; protein in cells
sequence,measurement,value
AGCTTCAGTGAGCGAGCGAGCGCGCAGGTTCGAAGTGAGCGAGCGAGCGCGCAGGTGAGCGAGCGAGCGCGCAGC (double strand) [three tandem RRS upstream of LacZ (YM.RRS3.LacZ)],binding result,binds
